Results of unrelated studies side by side (data: NIAID ChemDB).

Common to all: enzyme or target tests

Percent inhibition refers to the dose given; in toxicity tests it is the harm to the cells. Blank or dashed fields: not listed here. ICn is the concentration giving n% inhibition. Conditions beyond the fields shown may differ between rows.

structure | read-out | method | target | strain | agent | tested at | result
Nc1nc(N)c2ncn([C@@H]3O[C@H](COP(=O)(O)O)[C@@H](O)[C@H]3O)c2n1 | inhibition |  | DNA polymerase |  | Herpes simplex virus 1 | 2000 µM | 66.6%
CCN(C(=O)N(C)CCc1ccccn1)c1nc2ccc(NC(=O)CCCNC(=O)c3ccccn3)c(C)c2c(=O)o1 | IC50 |  | Protease |  | Herpes simplex virus 1 |  | 0.7 µM
O=c1[nH]c(=O)n([C@@H]2O[C@H](CO)[C@@H](O)[C@@H]2O)cc1/C=C/Br | Ki |  | DTHD kinase | 333 | Herpes simplex virus 2 |  | 54.67 µM
Nc1nc2c(ncn2[C@@H]2O[C@H](CO)[C@@H](OP(=O)(O)O)[C@H]2O)c(=O)[nH]1 | IC50 |  | DNA polymerase |  | Herpes simplex virus 1 |  | <2000 µM
C/C(=N\NC(=S)NNC(=S)Nc1ccc(Cl)cc1C)c1ccccn1 | IC50 |  | Ribonucleotide reductase |  | Herpes simplex virus 1 |  | >5 µM
C#C[C@H]1O[C@@H](n2cc(C)c(=O)[nH]c2=O)C[C@@H]1O | Ki |  | Thymidine kinase | KOS | Herpes simplex virus 1 |  | 0.09 µM
CC[C@@H](NC(=O)[C@@H](NC(=O)[C@H](CC(=O)C(C)(C)C)NC(=O)[C@@H](NC(=O)NC1[C@H](C)CCC[C@@H]1C)C(C)(C)C)C1(C(=O)O)CCCC1)C(C)(C)C | IC50 | radioligand binding / binding | Ribonucleotide reductase |  | Herpes simplex virus 1 |  | <0.001 µM
COc1cccc(NC(=S)NNC(=S)N/N=C(\C)c2ccccn2)c1 | IC50 |  | Ribonucleotide reductase |  | Herpes simplex virus 1 |  | >5 µM
Nc1nc(=O)n([C@@H]2O[C@H](CO)[C@@H](O)[C@@H]2F)cc1I | Ki |  | DTHD kinase | KOS | Herpes simplex virus 1 |  | 1.09 µM
C/C(=N\NC(=S)NNC(=S)Nc1ccncc1)c1ccccn1 | IC50 |  | Ribonucleotide reductase |  | Herpes simplex virus 1 |  | >5 µM
C/C=C/c1cn([C@@H]2O[C@H](CO)[C@@H](O)[C@@H]2O)c(=O)[nH]c1=O | inhibition |  | Thymidine kinase | C42 | Herpes simplex virus 1 | 100 µM | 87%
Nc1nc(N)c2nnn([C@@H]3O[C@H](COP(=O)(O)O)[C@@H](O)[C@H]3O)c2n1 | inhibition |  | DNA polymerase |  | Herpes simplex virus 1 | 2000 µM | 96.6%
CC[C@@H](N(C)C(=O)[C@@H](NC(=O)[C@@H](CC(=O)[C@@H](NC(=O)[C@H](C(C)C)N(C)C(=O)[C@H](C)[C@@H](C)C1CCCCC1)C(C)(C)C)CC(=O)C(C)(C)C)C1(C(=O)O)CCCC1)C(C)(C)C | IC50 |  | Ribonucleotide reductase |  | Herpes simplex virus 1 |  | 0.191 µM
CCN(C(=O)C1(Nc2nc3ccc(NC(=O)OC(C)(C)C)c(C)c3c(=O)o2)CCCC1)c1cccnc1 | IC50 |  | Protease |  | Herpes simplex virus 1 |  | 0.7 µM
O=c1[nH]c(=O)n([C@@H]2O[C@H](CO)[C@@H](O)[C@@H]2O)cc1/C=C/Br | inhibition |  | Thymidine kinase | C42 | Herpes simplex virus 1 | 10 µM | 72%
C/C(=N\NC(=S)NNC(=S)Nc1cccc(C#N)c1)c1ccccn1 | IC50 |  | Ribonucleotide reductase |  | Herpes simplex virus 1 |  | >5 µM
C[C@@H](c1ccccc1)N(CC(=O)Nc1ccc(-c2csc(N)n2)cc1)C(=O)c1ccncc1 | IC50 |  | Primase |  | Herpes simplex virus 1 |  | 0.15 µM
Nc1nc2c(ncn2[C@@H]2O[C@H](COP(=O)(O)OP(=O)(O)O)[C@@H](O)[C@H]2O)c(=O)[nH]1 | inhibition |  | DNA polymerase |  | Herpes simplex virus 1 | 2000 µM | 96.9%
COc1ccc(Cl)cc1NC(=S)NNC(=S)N/N=C(\C)c1ccccn1 | IC50 |  | Ribonucleotide reductase |  | Herpes simplex virus 1 |  | >5 µM
CCN(C(=O)N(C)CCc1ccccn1)c1nc2ccc(NC(=O)CCCNC(=O)c3cnccc3N(C)C)c(C)c2c(=O)o1 | IC50 |  | Protease |  | Herpes simplex virus 1 |  | 0.4 µM
Nc1nc2c(ncn2COCCOP(=O)(O)OP(=O)(O)OP(=O)(O)O)c(=O)[nH]1 | Ki |  | DNA polymerase |  | Herpes simplex virus 2 |  | 0.07 µM
C/C=C/c1cn([C@H]2C[C@H](O)[C@@H](CO)O2)c(=O)[nH]c1=O | inhibition |  | Thymidine kinase | C42 | Herpes simplex virus 1 | 5 µM | 60%
Cc1cn([C@@H]2O[C@H](CO)[C@@H](O)[C@@H]2Cl)c(=O)nc1N | Ki |  | DTHD kinase | 333 | Herpes simplex virus 2 |  | 29.24 µM
C/C(=N\NC(=S)NNC(=S)Nc1cccc(Cl)c1Cl)c1ccccn1 | IC50 |  | Ribonucleotide reductase |  | Herpes simplex virus 1 |  | >5 µM
CC[C@@H](NC(=O)[C@@H](NC(=O)[C@H](CC(=O)N1CCCC1)NC(=O)[C@@H](NC(=O)NC1[C@H](C)CCC[C@@H]1C)C(C)(C)C)C1(C(=O)O)CCCC1)C(C)(C)C | IC50 | radioligand binding / binding | Ribonucleotide reductase |  | Herpes simplex virus 2 |  | <0.001 µM
C/C(=N\NC(=S)NNC(=S)Nc1ccc(C(C)(C)C)cc1)c1ccccn1 | IC50 |  | Ribonucleotide reductase |  | Herpes simplex virus 1 |  | >5 µM
Nc1ccn([C@@H]2O[C@H](COP(=O)(O)O)[C@@H](O)[C@H]2O)c(=O)n1 | IC50 |  | DNA polymerase |  | Herpes simplex virus 1 |  | <2000 µM
C/C(=N\NC(=S)NNC(=S)Nc1cc(Cl)ccc1Cl)c1ccccn1 | IC50 |  | Ribonucleotide reductase |  | Herpes simplex virus 1 |  | >5 µM
O=c1[nH]c(=O)n([C@@H]2O[C@H](CO)[C@@H](O)[C@@H]2F)cc1I | Ki |  | DTHD kinase | KOS | Herpes simplex virus 1 |  | 0.68 µM
C[C@@H]1CCC[C@H](C)C1NC(=O)N[C@H](C(=O)C[C@@H](CC(=O)C(C)(C)C)C(=O)N[C@H](C(=O)N[C@H](CO)CC(C)(C)C)C1(C(=O)O)CCCC1)C(C)(C)C | IC50 | radioligand binding / binding | Ribonucleotide reductase |  | Herpes simplex virus 1 |  | <0.001 µM
CCN(C(=O)N(C)CCc1cccnc1)c1nc2ccc(NC(=O)OC(C)(C)C)c(C)c2c(=O)o1 | IC50 |  | Protease |  | Herpes simplex virus 1 |  | 0.2 µM